Drawing on PubChem BioAssay AID603 (National Center for Advancing Translational Sciences (NCATS), 2007), this text covers activity change, negative = inhibition for 30 compounds.

SMILES strings stand for the structures. This is a selection; strong and weak results do not stand in their true shares. Calls of active or inactive are those of the source. The call rests on the fitted dose curve; in most records, active means well fitted curve in the direction sought with a large enough effect; inconclusive means small, poorly fitted or top-dose-only effect; inactive means flat fitted curve, though single readings scatter.
On the % scale 0 is the no-effect control and ±100 the full control effect.

The assay relates to DNA polymerase III holoenzyme (E. coli). Put plainly: qHTS Assay for Inhibitors of DNA Polymerase III Holoenzyme System. Particulars: reconstituted DNA polymerase III holoenzyme replication, biochemical; at 57.1 µM (top of the series) unless noted. Here is the method: NIH Molecular Libraries Screening Centers Network [MLSCN]
NIH Chemical Genomics Center [NCGC]
Assay Provider: Charles McHenry, University of Colorado
E. coli DNA polymerase III holoenzyme complex was assayed for DNA production by fluorescent detection of the double-stranded DNA product with PicoGreen dye. The holoenzyme complex was reconstituted from the following purified protein components: DNA Polymerase III, beta subunit processivity factor, SSB single-stranded DNA binding protein, and Primase. Single-stranded, circular M13Gori was used as a substrate with dNTPs and NTPs also supplied to the substrate reagent. Compounds from the NCGC collection were incubated with the holoenzyme mixture for 15 min at room temperature to allow binding to occur, and then the reaction was started by the addition of substrate. After 30 min incubation at room temperature, PicoGreen solution containing EDTA was added to stop the reaction and to visualize the double-stranded DNA produced. Reaction progress was measured in a ViewLux CCD imager in fluorescence intensity mode by using 480 nm excitation and 540 nm emission filter set.
NCGC Assay Protocol Summary:
Buffer. 50 mM Hepes-KOH, pH 7.5, 5 % Glycerol, 0.02% NP40, 30 mM potassium;
glutamate, 1.5 mM Magnesium Acetate, 16 uM TCEP.
Buffer in columns 3 and 4 as negative control (no enzyme).
Substrate solution: 5 uM each dATP, dGTP, dCTP and TTP, 50 uM each GTP, CTP, UTP and 200 uM ATP, 1.4 nM M13gori (final concentrations).
Enzyme: 154 nM SSB, 2 nM Primase, 1 nM Beta, 0.35 nM Pol III (final concentrations).
PicoGreen/EDTA: 10 mM Tris-HCl, 10 mM EDTA, 5 uM PicoGreen (final concentrations).
Control titration: ChemBridge 5805060 (from 10 mM, then 1:2, in duplicate) was pin-transferred to upper half of column 2.
Three uL of holoenzyme mixture were dispensed to 1536-well Greiner black solid bottom plates. Compounds and controls (23 nL) were transferred via Kalypsys PinTool. The plates were incubated for 15 min at room temperature, and then 1 uL of substrate solution was added to start the reaction. After room temperature incubation for 35 minutes, 1 uL of PicoGreen solution was added to each well and the plates were read 480 nm excitation and 540 nm emission using ViewLux (Perkin-Elmer) High-throughput CCD imager and fluorescence protocol settings.
Keywords: NIH Roadmap, MLSCN, MLI, MLSMR, qHTS, NCGC, DNA Polymerase III, DNAPol3, DNAPoly3, DNA replication targets
On the technique in general: Quantitative high-throughput screening tests each substance at several concentrations.
On to `CP(=O)(Nc1ccccc1F)Oc1ccccc1` (stereo not given), for which the activity change, negative = inhibition was inactive: 0.4%.

`Cc1cccc([N+](=O)[O-])c1[N+](=O)[O-]`: the activity change, negative = inhibition is inactive: -1.8%. `CCC(C)(OO)OOC(C)(CC)OO` (stereo not given): the activity change, negative = inhibition is inactive: -4.3%. Consider `Cc1ccc([N+](=O)[O-])c([N+](=O)[O-])c1`, for which the activity change, negative = inhibition was inactive: 1.1%. The same measure for `Cc1c([N+](=O)[O-])cccc1[N+](=O)[O-]`: inactive: -0.7%; for `CN(C)CCOC(=O)C(O)(c1ccccc1)C1CCCCC1` (stereo not given): inactive: -5.7%. Turning to `CP(=O)(Nc1ccc2c(c1)OCCO2)Oc1ccccc1` (stereo not given), the activity change, negative = inhibition was inactive: -5.8%. The same measure for `NNC(NN)NN.n1nc(-c2nn[nH]n2)n[nH]1`: inactive: -6.1% [at 11.4 µM]. In the case of `[NH4+].[O-][Cl+3]([O-])([O-])[O-]`, the activity change, negative = inhibition was inactive: -0.8%. With `Cc1ccccc1NP(C)(=O)Nc1ccccc1C`, the activity change, negative = inhibition is inactive: -4.3%.

On to `CCOP(=O)(CC)OCC`, for which the activity change, negative = inhibition is inactive: -0.9%. As for `CCOP(C)(=S)SCC(=O)NC(C)(CC)C(=O)O` (stereo not given), the activity change, negative = inhibition was inactive: -6.9%.

`N#[O+].[C-]#N.[C-]#N.[C-]#N.[C-]#N.[C-]#N.[Fe+2].[Na+].[Na+]`: the activity change, negative = inhibition is inactive: -28.9%. On to `CP(=O)(Oc1ccccc1)N1CCOC1=O` (stereo not given), for which the activity change, negative = inhibition was inactive: -1.1%. Consider `COc1ccccc1OP(C)(=O)Nc1c(C)n(C)n(-c2ccccc2)c1=O` (stereo not given), for which the activity change, negative = inhibition was inactive: -0.1%. On to `C/C1=C2N=C(/C=C3N=C(/C(C)=C4\[N-][C@@](C)([C@H]5N=C1[C@@](C)(CCC(=O)NC[C@H](C)OP(=O)([O-])O[C@@H]1[C@H](O)[C@H](n6cnc7cc(C)c(C)cc76)O[C@@H]1CO)[C@@H]5CC(N)=O)[C@](C)(CC(N)=O)[C@H]4CCC(N)=O)[C@@](C)(CC(N)=O)[C@@H]\3CCC(N)=O)C(C)(C)[C@@H]/2CCC(N)=O.[C-]#N.[Co+3]`, for which the activity change, negative = inhibition was inactive: 8.5% [at 25.6 µM]. As to `Cc1nc2ccc3ccccc3c2o1.O=[N+]([O-])c1cc([N+](=O)[O-])c(O)c([N+](=O)[O-])c1`, the activity change, negative = inhibition is inactive: -3.4%. The same measure for `COc1ccccc1OP(C)(=O)Nc1ccc(C)c(C)c1` (stereo not given): inactive: -2.3%. As to `CP(=O)(Nc1ccccn1)Oc1ccccc1` (stereo not given), the activity change, negative = inhibition is inactive: -8.3%. Consider `O=[N+]([O-])[O-].[NH4+]`, for which the activity change, negative = inhibition was inactive: -6.1%. Take `Cc1ccc(NP(C)(=O)Oc2ccccc2)c(C)c1` (stereo not given): the activity change, negative = inhibition was inactive: -6.2%. The same measure for `COc1ccccc1OP(C)(=O)Nc1ccc(C)cc1` (stereo not given): inactive: -2.9%; for `CP(=S)(Nn1cnnc1)Oc1ccccc1` (stereo not given): inactive: -3.7%.

For `N1=C(c2nnc(-c3nn[nH]n3)nn2)NNN1`, the activity change, negative = inhibition is inactive: -1.8% [at 11.4 µM]. On to `CCOP(C)(=S)SCC(=O)NC(C)C(=O)O` (stereo not given), for which the activity change, negative = inhibition was inactive: -0.7%.

In the case of `CP(=O)(NC(=O)Nc1ccccc1)Oc1ccccc1` (stereo not given), the activity change, negative = inhibition is inactive: 1.8%.

In the case of `Cc1nc2ccc3ccccc3c2s1.O=[N+]([O-])c1cc([N+](=O)[O-])c(O)c([N+](=O)[O-])c1`, the activity change, negative = inhibition is inactive: -3.2%.

As to `Cc1ccc([N+](=O)[O-])cc1[N+](=O)[O-]`, the activity change, negative = inhibition is inactive: -1.9%. The same measure for `O=[N+]([O-])c1cccc([N+](=O)[O-])c1`: inactive: -3.2%.

`Cc1ccc(C)c(NP(C)(=O)Oc2ccccc2)c1` (stereo not given): the activity change, negative = inhibition is inactive: 4.4%.
